According to publication PMC3917654:

These sequences were tested against Imu3 (His-tagged) (Escherichia coli TA211 (uropathogenic)) (UniProt B7MAN7) (assay: competition with a labelled probe). Details: pUC19/EcoRI indicator DNA; EMSA: TE (10 mM Tris, 1 mM EDTA, pH 8), 37 C, 30 min, 0.8% agarose; recombinant protein; protein details: N-terminal His; single-stranded DNA.
AGGGTGGCGGTT [12-mer (M13)]: binds. GAGGGTGGCGGTT [13-mer (M13)]: binds. GAGGGTGGCGGTTC [14-mer (M13)]: binds. GAGGGTGGCGGTTCT [15-mer (M13)]: binds.

For at least one entry, the source does not settle the construct or the ends of the probe. At least one verdict rests on a figure or table, not on a statement of the authors.
